Anti-infective test results gathered from many reports (values: NIAID ChemDB through PubChem).

All rows: growth or infection tests; species: Candida albicans; measure: MIC

An empty or dashed field is not shown. Lines come from different laboratories, so protocols vary. a–b is a range or a potency band.

{"compound": "CC(C)C(=N)CCC[C@H]1CO[C@@](Cn2cncn2)(c2ccc(F)cc2F)C1", "strain or isolate": "A.10231", "value": ">100 µg/mL"}
{"compound": "Nc1ccc(Cl)cc1C(=O)Nc1ccccc1", "strain or isolate": "ATCC 44859", "value": ">500 µM"}
{"compound": "CC1(c2ccc(Cl)cc2Cl)OCC(CO/N=C(\\Cn2ccnc2)c2ccc(Cl)cc2)O1", "value": "≤10 µg/mL"}
{"compound": "CC(NC(=O)OC(C)(C)C)c1nc(C(=O)NN)cs1", "strain or isolate": "7 isolates", "value": "230–470 µM"}
{"compound": "CC(=O)O/N=C(\\c1ccc(Cl)cc1)c1oc2ccccc2c1C", "value": "16 µg/mL"}
{"compound": "C=C1C[C@@H]2C[C@@H]3CCO[C@@H](O3)c3coc(n3)/C=C/C[C@H]3O[C@@H](/C(C)=C/c4coc(C[C@]5(O)C[C@H](OC)C[C@H]([C@H](O)/C=C(C)/C=C/[C@@H](C/C=C/Cl)OC)O5)n4)[C@H](C)[C@@H](OC(=O)/C=C\\C[C@@H](C1)O2)[C@H]3C", "strain or isolate": "UCD-FR1", "method": "broth dilution", "value": "8 µg/mL"}
{"compound": "Cc1c(/C(=N\\O)c2ccccc2)oc2ccccc12", "value": "4 µg/mL"}
{"compound": "CC(C)N=C(N)c1ccc2nc(-c3ccc4c(c3)Cc3cc(-c5nc6ccc(C(N)=NC(C)C)cc6[nH]5)ccc3-4)[nH]c2c1", "strain or isolate": "Isolate CA1247", "value": "1.56 µg/mL"}
{"compound": "CC1(c2ccccc2Cl)OCC(CO/N=C(\\Cn2ccnc2)c2ccc(Cl)cc2)O1", "value": "≤10 µg/mL"}
{"compound": "Nc1ccccc1C(=O)Nc1ccc(Br)cc1", "strain or isolate": "ATCC 44859", "value": ">1000 µM"}
{"compound": "CC(C)C(=N)CCC=C1CO[C@@](Cn2cncn2)(c2ccc(F)cc2F)C1", "strain or isolate": "A.10231", "value": ">100 µg/mL"}
{"compound": "CCOC(=O)c1csc(C(NC(=O)OC(C)(C)C)C(C)C)n1", "strain or isolate": "7 isolates", "value": "389 µM"}
{"compound": "O=c1c2cc(Cl)ccc2nnn1-c1ccccc1", "strain or isolate": "ATCC 44859", "value": ">1000 µM"}
{"compound": "C=C1C[C@@H]2C[C@@H]3CCO[C@@H](O3)c3cccc(c3)/C=C/C[C@H]3O[C@@H](/C(C)=C/C#N)[C@H](C)[C@@H](OC(=O)/C=C/C[C@@H](C1)O2)[C@H]3C", "strain or isolate": "96-489", "method": "broth dilution", "value": ">64 µg/mL"}
{"compound": "Cc1c(/C(=N/OC(=O)c2ccccc2)c2ccc(Cl)cc2)oc2ccccc12", "value": ">512 µg/mL"}
{"compound": "C[C@@H]1CC[C@H]2O[C@@]2(C)[C@@]1(C)CCc1ccc2c(c1)C(=O)C=CC2=O", "value": "6 µg/mL"}
{"compound": "Cc1c(/C(=N/OCc2ccccc2)c2ccc(Cl)cc2)oc2ccccc12", "value": "8 µg/mL"}
{"compound": "Nc1ccc(Cl)cc1C(=O)Nc1ccc(F)cc1", "strain or isolate": "ATCC 44859", "value": ">1000 µM"}
{"compound": "CC1(C)OCC(CO/N=C(\\Cn2ccnc2)c2ccccc2)O1", "value": ">10 µg/mL"}
{"compound": "CC(NC(=O)OC(C)(C)C)c1nc(C(N)=O)cs1", "strain or isolate": "7 isolates", "value": "220–440 µM"}
{"compound": "CC(C)C(=N)CCC[C@H]1CO[C@@](Cn2cccc2)(c2ccc(F)cc2F)C1", "strain or isolate": "CI-2", "value": "100 µg/mL"}
{"compound": "Cc1c(Cc2ccc(Cl)cc2)[nH]c(=S)[nH]c1=O", "strain or isolate": "ATCC 10231", "value": "100 µg/mL"}
{"compound": "CC(C)C(=O)CCC[C@@H]1CO[C@@](Cn2ccnc2)(c2ccc(F)cc2F)C1", "strain or isolate": "B02630", "value": "50 µg/mL"}
{"compound": "CCc1c(Cc2ccc(Cl)cc2)nc(SCCN2C(=O)c3ccccc3C2=O)[nH]c1=O", "strain or isolate": "ATCC 10231", "value": "100 µg/mL"}
{"compound": "CCCCCCCCCCCCCCCC(=O)NC(CCCCN)C(=O)NC(CCCCN)C(N)=O", "strain or isolate": "90029", "method": "broth dilution", "value": "0.5 µg/mL"}
{"compound": "CC(C)CC(N)c1nc(C(=O)O)cs1", "strain or isolate": "7 isolates", "value": ">1000 µM"}
{"compound": "Clc1ccc(/C(Cn2ccnc2)=N/OCC2COC(Cn3ccnc3)(c3ccc(Cl)cc3Cl)O2)c(Cl)c1", "value": "≤5 µg/mL"}
{"compound": "C=C1C[C@@H]2C[C@@H]3CCO[C@@H](O3)c3cccc(c3)/C=C/C[C@H]3O[C@@H](/C(C)=C/I)[C@H](C)[C@@H](OC(=O)/C=C/C[C@@H](C1)O2)[C@H]3C", "strain or isolate": "96-489", "method": "broth dilution", "value": ">64 µg/mL"}
{"compound": "CC(N)c1nc(C(=O)NN)cs1", "strain or isolate": "7 isolates", "value": "200–400 µM"}
{"compound": "Clc1ccccc1C(c1ccccc1)(c1ccccc1)n1ccnc1", "strain or isolate": "ATCC 10231", "value": "6 µg/mL"}
{"compound": "C=C1C[C@@H]2C[C@@H]3CCO[C@@H](O3)c3coc(n3)/C=C/C[C@H]3O[C@@H](/C(C)=C/I)[C@H](C)[C@@H](OC(=O)/C=C/C[C@@H](C1)O2)[C@H]3C", "strain or isolate": "ATCC 14503", "method": "broth dilution", "value": ">64 µg/mL"}
{"compound": "CC(=O)O/N=C(\\c1ccc(C)cc1)c1oc2ccccc2c1C", "value": "128 µg/mL"}
{"compound": "CCOC(=O)c1csc(C(C)NC(=O)OC(C)(C)C)n1", "strain or isolate": "7 isolates", "value": "420 µM"}
{"compound": "CC1(c2ccccc2Cl)OCC(CO/N=C(\\Cn2ccnc2)c2ccc(Cl)cc2Cl)O1", "value": "≤10 µg/mL"}
{"compound": "C[C@@H]1CC[C@H](O)[C@@](C)(O)[C@@]1(C)CCc1ccc2c(c1)C(=O)C=CC2=O", "value": "6 µg/mL"}

A second listing of 3 rows from above:

compound | strain or isolate | method | value
Nc1ccccc1C(=O)Nc1ccc(Br)cc1 | ATCC 44859 |  | >1000 µM
CCOC(=O)c1csc(C(C)NC(=O)OC(C)(C)C)n1 | 7 isolates |  | 420 µM
CC1(c2ccccc2Cl)OCC(CO/N=C(\Cn2ccnc2)c2ccc(Cl)cc2)O1 |  |  | ≤10 µg/mL